Test system: Nc1nc2c(ncn2[C@@H]2O[C@H](COP(=O)(O)OP(=O)(O)OP(=O)(O)O)[C@@H](O)[C@H]2O)c(=O)[nH]1
Assay: purified protein
Details: pH 7.5; 35.0 °C

Substance: LegA15 (Legionella pneumophila subsp. pneumophila str. Philadelphia 1)
- Km: 7.13 ± 1.77 µM
